Results: patent US10786484B2, “Mono- or di-substituted indole derivatives as dengue viral replication inhibitors” (Janssen Pharmaceuticals, Inc., priority 2015, dated 2020)

Test system: DENV-2 16681 strain labeled with eGFP
Assay: DENV-2 antiviral assay (eGFP fluorescence read-out in Vero cells)
Type: cell-based, Dengue virus
Conditions: SI=CC50/EC50, DENV-2 antiviral assay
Procedure: The antiviral activity of all the compounds of the invention was tested against the DENV-2 16681 strain which was labeled with enhanced green fluorescent protein (eGPF). The culture medium consists of minimal essential medium supplemented with 2% of heat-inactivated fetal calf serum, 0.04% gentamycin (50 mg/mL) and 2 mM of L-glutamine. Vero cells, obtained from ECACC, were suspended in culture medium and 25 μL was added to 384-well plates (2500 cells/well), which already contain the antiviral compounds. Typically, these plates contain a 5-fold serial dilution of 9 dilution steps of the test compound at 200 times the final concentration in 100% DMSO (200 nL). […] Finally, each plate contains wells which are assigned as virus controls (containing cells and virus in the absence of compound), cell controls (containing cells in the absence of virus and compound) and medium controls (containing medium in the absence of cells, virus and compounds). To the wells assigned as medium control, 25 μL of culture medium was added instead of Vero cells. Once the cells were added to the plates, the plates were incubated for 30 minutes at room temperature to allow the cells to distribute evenly within the wells. Next, the plates were incubated in a fully humidified incubator (37° C., 5% CO2) until the next day. Then, DENV-2 strain 16681, labeled with eGFP, was added at a multiplicity of infection (MOI) of 0.5. Therefore, 15 μL of virus suspension was added to all the wells containing test compound and to the wells assigned as virus control. In parallel, 15 μL of culture medium was added to the medium and cell controls. Next, the plates were incubated for 3 days in a fully humidified incubator (37° C., 5% CO2). At the day of the read out, the eGFP fluorescence was measured using an automated fluorescence microscope at 488 nm (blue laser). Using an in-house LIMS system, inhibition dose response curves for each compound were calculated and the half maximal effective concentration (EC50) was determined. Therefore, the percent inhibition (I) for every test concentration is calculated using the following formula: I=100*([…])/(SVC−SCC); ST, SCC and SVC are the amount of eGFP signal in the test compound, cell control and virus control wells, respectively. The EC50 represents the concentration of a compound at which the virus replication is inhibited with 50%, as measured by a 50% reduction of the eGFP fluorescent intensity compared to the virus control. The EC50 is calculated using linear interpolation (Table 1).

Point of comparison: `COc1cc(NC(C(=O)c2c[nH]c3cc(OC)c(OC(F)(F)F)cc23)c2ccc(F)cc2OCCO)cc(S(C)(=O)=O)c1` (single isomer, unassigned) [Compound 11A, 2-(4-fluoro-2-(2-hydroxyethoxy)phenyl)-2-((3-methoxy-5-(methyl-sulfonyl)phenyl)amino)-1-(6-methoxy-5-(trifluoromethoxy)-1H-indol-3-yl)ethanone], SI 613. Against it:
- COc1cc(NC(C(=O)c2c[nH]c3cc(F)c(F)cc23)c2ccc(F)cc2OCCO)cc(S(C)(=O)=O)c1 (single isomer, unassigned) [Compound 5B, 1-(5,6-difluoro-1H-indol-3-yl)-2-(4-fluoro-2-(2-hydroxyethoxy)phenyl)-2-((3-methoxy-5-(methylsulfonyl)phenyl)-amino)ethanone] — higher, 670
- COc1cc(NC(C(=O)c2c[nH]c3c(C)cc(OC(F)(F)F)cc23)c2ccc(F)cc2OCCO)cc(S(C)(=O)=O)c1 (single isomer, unassigned) [Compound 12B, 2-(4-fluoro-2-(2-hydroxyethoxy)phenyl)-2-((3-methoxy-5-(methylsulfonyl)phenyl)amino)-1-(7-methyl-5-(trifluoromethoxy)-1H-indol-3-yl)ethanone] — higher, 8540
- COc1cc(NC(C(=O)c2c[nH]c3c(C)c(Cl)ccc23)c2ccc(F)cc2OCCO)cc(S(C)(=O)=O)c1 (single isomer, unassigned) [Compound 4A, 1-(6-chloro-7-methyl-1H-indol-3-yl)-2-(4-fluoro-2-(2-hydroxyethoxy)phenyl)-2-((3-methoxy-5-(methylsulfonyl)phenyl)amino)ethanone] — higher, 1020
- COc1cc(NC(C(=O)c2c[nH]c3c(F)cc(C)cc23)c2ccc(F)cc2OCCO)cc(S(C)(=O)=O)c1 (racemic) [Compound 8, 2-(4-fluoro-2-(2-hydroxyethoxy)phenyl)-1-(7-fluoro-5-methyl-1H-indol-3-yl)-2-((3-methoxy-5-(methylsulfonyl)phenyl)amino)ethanone] — higher, 3050
- COc1cc(NC(C(=O)c2c[nH]c3c(C)c(Cl)ccc23)c2ccc(F)cc2OCCO)cc(S(C)(=O)=O)c1 (racemic) [Compound 4, 1-(6-chloro-7-methyl-1H-indol-3-yl)-2-(4-fluoro-2-(2-hydroxyethoxy)phenyl)-2-((3-methoxy-5-(methylsulfonyl)phenyl)amino)ethanone] — higher, 8960
- COc1cc(NC(C(=O)c2c[nH]c3cc(Cl)ccc23)c2ccc(F)cc2OCCO)cc(S(C)(=O)=O)c1 (single isomer, unassigned) [Compound 2B, 1-(6-chloro-1H-indol-3-yl)-2-(4-fluoro-2-(2-hydroxyethoxy)phenyl)-2-((3-methoxy-5-(methylsulfonyl)phenyl)amino)-ethanone] — lower, 589
- COc1cc(NC(C(=O)c2c[nH]c3cc(OC)c(C)cc23)c2ccc(F)cc2OCCO)cc(S(C)(=O)=O)c1 (single isomer, unassigned) [Compound 6B, 2-(4-fluoro-2-(2-hydroxyethoxy)phenyl)-2-((3-methoxy-5-(methylsulfonyl)phenyl)amino)-1-(6-methoxy-5-methyl-1H-indol-3-yl)ethanone] — lower, 80
- COc1cc(NC(C(=O)c2c[nH]c3c(C)c(F)ccc23)c2ccc(F)cc2OCCO)cc(S(C)(=O)=O)c1 (single isomer, unassigned) [Compound 3B, 2-(4-fluoro-2-(2-hydroxyethoxy)phenyl)-1-(6-fluoro-7-methyl-1H-indol-3-yl)-2-((3-methoxy-5-(methylsulfonyl)phenyl)amino)ethanone] — lower, 366
- COc1cc(NC(C(=O)c2c[nH]c3ccc(OC(F)(F)F)cc23)c2ccc(F)cc2OCCO)cc(S(C)(=O)=O)c1 (single isomer, unassigned) [Compound 10A, 2-(4-fluoro-2-(2-hydroxyethoxy)phenyl)-2-((3-methoxy-5-(methylsulfonyl)phenyl)amino)-1-(5-(trifluoromethoxy)-1H-indol-3-yl)ethanone] — lower, 597
